The test system of this data set is HIV-1 IIIB. As to the kind of experiment: Multi-cycle infection assay, inhibition of p24 production. Particulars: SI = CC50/IC50, MT-2 cells. The format is cell-based.

Where a SMILES comes first, the peptide text is derived from it. Bridges are numbered along the chain shown (N, C = ends). [ ]: non-standard residue; d: D form. R8 = C=CCCCCCC[C@@](C)(N)C(=O)O; S5 = C=CCCC[C@](C)(N)C(=O)O Some results are limits rather than exact numbers.

With “Ac-ISF-R8-QLLDYY-S5-QSGSK-amide (sidechain bridge or staple) [NYAD-46, i,i + 7 hydrocarbon-stapled peptide derived from CAI]”, the SI was found to be 1.9.
Then `CC[C@H](C)[C@H](NC(C)=O)C(=O)N[C@@H](CO)C(=O)N[C@@H](Cc1ccccc1)C(=O)N[C@]1(C)CCCCCCC=CCCC[C@@](C)(C(=O)N[C@@H](CCC(=O)O)C(=O)N[C@@H](CO)C(=O)NCC(=O)N[C@@H](CO)C(N)=O)NC(=O)[C@H](Cc2ccc(O)cc2)NC(=O)[C@H](Cc2ccc(O)cc2)NC(=O)[C@H](CC(=O)O)NC(=O)[C@H](CC(C)C)NC(=O)[C@H](CC(C)C)NC(=O)[C@H](CCC(=O)O)NC1=O` [NYAD-36] (Ac-ISF[R8]ELLDYY[S5]ESGS-NH2; staple 4-11), with above 126; and “Ac-ISF-R8-ELLDYY-S5-ESGSKKK-amide (sidechain bridge or staple) [NYAD-44, i,i + 7 hydrocarbon-stapled peptide derived from CAI]”, with 1.5; and “Ac-ISF-R8-ELEDYY-S5-ESGS (sidechain bridge or staple) [NYAD-43, i,i + 7 hydrocarbon-stapled peptide derived from CAI]”, with above 2.0.
With “Ac-ISF-R8-ELLDYY-S5-EKSGSKD-amide (sidechain bridge or staple) [NYAD-55, i,i + 7 hydrocarbon-stapled peptide derived from CAI]” the figure was above 1.0; with “Ac-RSF-R8-RLLDYY-S5-ESGS-amide (sidechain bridge or staple) [NYAD-61, i,i + 7 hydrocarbon-stapled peptide derived from CAI]”, 3.1.
Then “IRF-R8-QLLNYY-S5-ESGS-amide (sidechain bridge or staple) [NYAD-58, i,i + 7 hydrocarbon-stapled peptide derived from CAI]”, with 2.1; and “Ac-SK-R8-ELLDYY-S5-ESGS-amide (sidechain bridge or staple) [NYAD-64, i,i + 7 hydrocarbon-stapled peptide derived from CAI]”, with above 1.0.
The compound “Ac-RSFE-R8-LLDYYG-S5-SGS-amide (sidechain bridge or staple) [NYAD-65, i,i + 7 hydrocarbon-stapled peptide derived from CAI]” gave an SI above 1.0.
With “Ac-ISF-R8-ELLRYY-S5-R-amide (sidechain bridge or staple) [NYAD-56, i,i + 7 hydrocarbon-stapled peptide derived from CAI]” the figure was 3.4.
Then `CC[C@H](C)[C@H](NC(C)=O)C(=O)N[C@@H](CO)C(=O)N[C@@H](Cc1ccccc1)C(=O)N[C@]1(C)CCCCCCC=CCCC[C@@](C)(C(=O)N[C@@H](CCC(=O)O)C(=O)N[C@@H](CC(=O)O)C(=O)N[C@@H](CCC(=O)O)C(N)=O)NC(=O)[C@H](Cc2ccc(O)cc2)NC(=O)[C@H](C)NC(=O)[C@H](CCC(N)=O)NC(=O)[C@H](CC(C)C)NC(=O)[C@H](Cc2c[nH]c3ccccc23)NC(=O)[C@H](CCC(=O)O)NC1=O` [NYAD-67] (Ac-ISF[R8]EWLQAY[S5]EDE-NH2; staple 4-11), with above 27.7; and “Ac-RRF-R8-ELLDYY-S5-ESGS-amide (sidechain bridge or staple) [NYAD-62, i,i + 7 hydrocarbon-stapled peptide derived from CAI]”, with 1.9; and “Ac-R-R8-FAELLD-S5-YGESGS-amide (sidechain bridge or staple) [NYAD-63, i,i + 7 hydrocarbon-stapled peptide derived from CAI]”, with above 2.0.
With “Ac-ISFDELLDYYGESGS [NYAD-41, linear control based on NYAD-36]”, the SI is above 1.0.
“Ac-ISF-R8-EWLQYY-S5-R-amide (sidechain bridge or staple) [NYAD-33, i,i + 7 hydrocarbon-stapled peptide derived from CAI]” had an SI of 2.7.
With “Ac-IRQGPKEPFRDYVDR-NH2 [NYAD-401, reference compound]” the figure was above 1.0; with “ISF-R8-ELLNYY-S5-ESGS-amide (sidechain bridge or staple) [NYAD-57, i,i + 7 hydrocarbon-stapled peptide derived from CAI]”, 4.5; with `CC[C@H](C)[C@H](NC(C)=O)C(=O)N[C@@H](CO)C(=O)N[C@@H](Cc1ccccc1)C(=O)N[C@]1(C)CCCCCCC=CCCC[C@@](C)(C(=O)N[C@@H](CCC(=O)O)C(=O)N[C@@H](CC(=O)O)C(N)=O)NC(=O)[C@H](Cc2ccc(O)cc2)NC(=O)[C@H](Cc2ccc(O)cc2)NC(=O)[C@H](CC(=O)O)NC(=O)[C@H](CC(C)C)NC(=O)[C@H](CC(C)C)NC(=O)[C@H](CCC(=O)O)NC1=O` [NYAD-66] (Ac-ISF[R8]ELLDYY[S5]ED-NH2; staple 4-11), above 29.1.

The values above are taken from paper PMC3842668, “Dual-acting stapled peptides target both HIV-1 entry and assembly” (Retrovirology, 2013).
